In patent publication US20160304570A1, “Potent and selective inhibitors of nav1.3 and nav1.7” (published 2016):

Tests used:
Assay in all cases: cell-based or functional assay
[1] = biological target: human voltage-gated sodium channel Nav1.3 (human) (UniProt Q9NY46)
[2] = biological target: human voltage-gated sodium channel Nav1.5 (human) (UniProt Q14524)
[3] = biological target: human voltage-gated sodium channel Nav1.7 (human) (UniProt Q15858)

Row | Substance | IWQ Use Nav1.3 [1] [µM] | IWQ Use Nav1.5 [2] [µM] | IWQ Use Nav1.7 [3] [µM] | further results
1 | 4-Pen-[2-Abu5,13;Leu6]GpTx-1(1-34) (peptide) |  |  |  | IWQ Use Nav1.3 IC50 (IonWorks Quattro electrophysiology) [1]: 0.69 µM; IWQ Use Nav1.5 IC50 (IonWorks Quattro electrophysiology) [2]: 32.7 µM; IWQ Use Nav1.7 IC50 (IonWorks Quattro electrophysiology) [3]: 0.46 µM
2 | 4-Pen-[Nva5;Leu6;2-Abu13]GpTx-1(1-34) (peptide) |  |  |  | IWQ Use Nav1.3 IC50 (IonWorks Quattro electrophysiology) [1]: 0.25 µM; IWQ Use Nav1.5 IC50 (IonWorks Quattro electrophysiology) [2]: 35.2 µM; IWQ Use Nav1.7 IC50 (IonWorks Quattro electrophysiology) [3]: 0.19 µM
3 | [1-Nal1;Glu6]GpTx-1(1-34) (peptide) | > 5 | 26.3 | > 5 | 
4 | [1-Nal1;Glu7]GpTx-1(1-34) (peptide) | 1.9 | 30.6 | 1.8 | 
5 | [1-Nal1;Glu8]GpTx-1(1-34) (peptide) | 0.9 | 32 | 1 | 
6 | [1-Nal1]GpTx-1(1-34) (peptide) | 0.14 | 13.4 | 0.11 | Nav1.3 Use IC50 (PatchXpress whole cell patch clamp) [1]: 66 nM; Nav1.5 Use IC50 (PatchXpress whole cell patch clamp) [2]: 7600 nM; Nav1.7 Use IC50 (PatchXpress whole cell patch clamp) [3]: 23 nM
7 | [1-Nal10;Ala31]GpTx-1(1-34) (peptide) | 3.2 | 36.5 | > 5 | 
8 | [1-Nal10;Ala32]GpTx-1(1-34) (peptide) | 0.44 | 35 | 0.51 | 
9 | [1-Nal10;Ala33]GpTx-1(1-34) (peptide) | 0.2 | 39.5 | 0.2 | 
10 | [1-Nal10;Glu15]GpTx-1(1-34) (peptide) | 1.1 | 34.3 | 0.93 | 
11 | [1-Nal10;Glu28]GpTx-1(1-34) (peptide) | 1.1 | 27.5 | 0.78 | 
12 | [1-Nal10;Glu29]GpTx-1(1-34) (peptide) | 10.8 | 18.9 |  | 
13 | [1-Nal10;Glu31]GpTx-1(1-34) (peptide) | > 5 | 26.8 | > 5 | 
14 | [1-Nal10;Glu32]GpTx-1(1-34) (peptide) | > 5 | 28.6 |  | 
15 | [1-Nal10;Glu33]GpTx-1(1-34) (peptide) |  |  |  | IWQ Use Nav1.3 IC50 (IonWorks Quattro electrophysiology) [1]: 0.53 µM; IWQ Use Nav1.5 IC50 (IonWorks Quattro electrophysiology) [2]: 28.3 µM; IWQ Use Nav1.7 IC50 (IonWorks Quattro electrophysiology) [3]: 0.3 µM
16 | [2-Abu5;Nle6]GpTx-1(1-34) (peptide) |  |  |  | IC50, IWQ Use Nav1.3 [1]: 160 nM; IC50, IWQ Use Nav1.5 [2]: 40200 nM; Nav1.5 Use IC50 (PatchXpress electrophysiology) [2]: > 10 µM; IC50, IWQ Use Nav1.7 [3]: 60 nM; Nav1.7 Use IC50 (PatchXpress electrophysiology) [3]: 0.001 µM
17 | [2-Abu9,23]GpTx-1(1-34) (peptide) |  |  |  | IWQ Use Nav1.3 (µM); IC50 of peak inward current, IonWorks Quattro [1]: 12.3 µM; IWQ Use Nav1.5 (µM); IC50 of peak inward current, IonWorks Quattro [2]: 9.21 µM; IWQ Use Nav1.7 (µM); IC50 of peak inward current, IonWorks Quattro [3]: 8.14 µM
18 | [Ala5;1-Nal33]GpTx-1(1-34) (peptide) |  |  |  | IWQ Use Nav1.3 (µM); IC50 of peak inward current, IonWorks Quattro [1]: 0.8 µM; Nav1.3 Use IC50 (PatchXpress electrophysiology) [1]: 0.201 µM; IWQ Use Nav1.5 (µM); IC50 of peak inward current, IonWorks Quattro [2]: 5 µM; Nav1.5 Use IC50 (PatchXpress electrophysiology) [2]: > 10 µM; IWQ Use Nav1.7 (µM); IC50 of peak inward current, IonWorks Quattro [3]: 0.38 µM; Nav1.7 Use IC50 (PatchXpress electrophysiology) [3]: 0.048 µM
19 | [Ala5;Nle6;Glu12]GpTx-1(1-34) (peptide) |  |  |  | IWQ Use Nav1.3 (µM) (IC50, IonWorks Quattro population patch clamp) [1]: 0.27 µM; IWQ Use Nav1.5 (µM) (IC50, IonWorks Quattro population patch clamp) [2]: 47 µM; Nav1.5 Use IC50 (PatchXpress electrophysiology) [2]: > 10 µM; IWQ Use Nav1.7 (µM) (IC50, IonWorks Quattro population patch clamp) [3]: 0.38 µM; Nav1.7 Use IC50 (PatchXpress electrophysiology) [3]: 0.023 µM
20 | [Glu4;1-Nal10]GpTx-1(1-34) (peptide) | 2 | 29.1 | 1.3 | 
21 | [Glu8;1-Nal10]GpTx-1(1-34) (peptide) | 1.2 | 30.7 | 1.1 | 
22 | [K(Me2)15]GpTx-1(1-34) (peptide) |  |  |  | IWQ Use Nav1.3 (µM): IC50 of peak inward current, IonWorks Quattro [1]: 0.13 µM; IWQ Use Nav1.5 (µM): IC50 of peak inward current, IonWorks Quattro [2]: 10.1 µM; IWQ Use Nav1.7 (µM): IC50 of peak inward current, IonWorks Quattro [3]: 0.19 µM
23 | [PE1]GpTx-1(1-34) (peptide) | 0.11 | 10.7 | 0.17 | 
